B1: C34-biotin (C-peptide C34, […] of HIV-1 HXB2 gp41 CHR, biotin-labelled) (peptide)
peptide: not shown
modifications: biotin (position not given)
notes: source: synthetic peptide
B2: C34-FAM (C-peptide C34, […] of HIV-1 HXB2 gp41 CHR, FAM-labelled) (peptide)
peptide: not shown
modifications: FAM (position not given)
notes: source: synthetic peptide

Assays:
[1] = molecular target: T1, N-peptide N36 ([…] of HIV-1 HXB2 gp41 NHR) (HIV-1 HXB2); assay: ELISA; conditions: both partners purified
T1 construct: source: synthetic peptide

[2] = molecular target: T1, N-peptide N36 ([…] of HIV-1 HXB2 gp41 …); assay: native gel or EMSA; conditions: both partners purified

Row | Binder | binding result [1] | binding result [2]
1 | B1 | binds | 
2 | B2 |  | binds
